The record followed here is ChEMBL document CHEMBL5038580 (J Med Chem, 2022).

What is called IC50 is the concentration needed to halve the response being measured.

The subject of the test is Middle East respiratory syndrome-related coronavirus. The test can be described thus: Antiviral activity against MERS-CoV assessed as reduction in viral infection preincubated with virus for 30 mins followed by Huh-7 cells addition and culture replaced with fresh medium after 12 hrs post infection measured after 48 hrs by fluorescence assay.

For the compound `CC[C@H](C)[C@H](NC(=O)[C@H](Cc1ccc(O)cc1)NC(=O)[C@H](CO)NC(=O)[C@H](CCC(=O)O)NC(=O)[C@H](CCC(=O)O)NC(=O)[C@H](CC(C)C)NC(=O)[C@H](CCCCN)NC(=O)[C@H](CCCCN)NC(=O)[C@@H](NC(=O)[C@@H](NC(=O)[C@H](CCC(=O)O)NC(=O)[C@H](CCC(=O)O)NC(=O)[C@H](CC(C)C)NC(=O)[C@H](CCCCN)NC(=O)[C@H](CCCCN)NC(=O)[C@H](CCSC)NC(=O)[C@H](CCC(=O)O)NC(=O)[C@H](Cc1ccc(O)cc1)NC(=O)[C@H](CCC(=O)O)NC(=O)[C@H](CC(C)C)NC(=O)[C@H](CC(=O)O)NC(=O)[C@H](CC(C)C)NC(=O)[C@H](CC(C)C)NC(=O)[C@@H](NC(=O)[C@@H](NC(=O)[C@H](CC(N)=O)NC(=O)[C@@H](NC(=O)[C@H](CCC(N)=O)NC(=O)[C@@H](NC(=O)[C@H](CC(C)C)NC(=O)[C@H](CO)NC(C)=O)[C@@H](C)O)[C@@H](C)CC)[C@@H](C)O)[C@@H](C)O)C(C)C)C(C)C)C(=O)N[C@@H](CC(=O)O)C(=O)N[C@@H](CC(C)C)C(=O)N[C@@H](CCCCN)C(=O)N[C@@H](CCC(=O)O)C(=O)N[C@@H](CC(C)C)C(N)=O`, the IC50 turned out to be 450 nM.
